Anti-infective test results gathered from many reports (values: NIAID ChemDB through PubChem).

Common to all: whole-cell or culture tests; species: Rhinovirus; read by: cytopathic effect; measure: EC50

ECn: concentration that inhibits the pathogen or its effect by n%. Conditions beyond the fields shown may differ between rows.

smiles	strain	cells	value
CCOc1nc2ccc(OCCC3CCN(c4nnc(C)s4)CC3)cc2o1	Serotype 2	MRC-5	0.065 µg/mL
Cc1c(-c2ccccc2)n(-c2ccc(F)cc2)c2ccc(C(C)C)cc2c1=O	10/204-CV14	HELA-OHIO	0.032 µg/mL
CSc1nsc(-c2ccc(OCCOc3ccc([N+](=O)[O-])cc3)cc2)c1C#N	Serotype 29 (group B)	HELA-OHIO	>2 µM
CCN(CC)c1cc(-c2ccc(OC)cc2OC)on1	Serotype 14	HeLa	>362 µM
CCCCc1nc2ccc(OCCC3CCN(c4ccc(C)nn4)CC3)cc2o1	Serotype 2	MRC-5	0.13 µg/mL
CCCc1ccc(CCCOc2ccc(-c3noc(C4CC4)n3)c(C)c2)nn1	serotypes 3 4 5 9 16 18 38 66 75 67	HeLa	0.14 µg/mL
Cc1ccc(N2CCC(CCOc3ccc4nc(C)oc4c3)CC2)nn1	Serotype 2	MRC-5	>0.5 µg/mL
CCOc1cc(OC)ccc1-c1cc(N(CC)CC)no1	Serotype 51 (group B)	HeLa	17.1 µM
CCOC(=O)c1ccc(OCCCOc2ccc(-c3snc(SC)c3C#N)cc2)cc1	Serotype 86 (group A)	HELA-OHIO	0.4 µM
CCCCCCS(=O)(=O)c1ccc(Oc2ccc(C(=O)c3ccccc3)cc2)nc1	TYPE 2	HeLa	>10 µg/mL
CSc1nsc(-c2ccc(OS(=O)(=O)c3ccc(C)cc3)cc2)c1C#N	Serotype 72 (group A)	HELA-OHIO	>25 µM
CS(=O)(=O)c1ccc(NCc2ccc(Cl)c(Cl)c2)nc1	TYPE 68	HeLa	>10 µg/mL
COC(=O)c1cc(CCCOc2c(C)cc(-c3noc(C)n3)cc2C)on1	Serotype 1B	HeLa	0.009 µg/mL
CSc1nsc(-c2ccccc2)c1C#N	Serotype 2 (group B)	HELA-OHIO	>80 µM
CCc1nc(-c2cc(C)c(OCCCc3cc(COC)no3)c(C)c2)no1	Serotype 86	HeLa	0.025 µg/mL
CCSc1nc2ccc(OCCC3CCN(c4ccc(C)nn4)CC3)cc2o1	Serotype 14	MRC-5	0.006 µg/mL
CCS(=O)(=O)c1ccc(NCc2ccc(Cl)c(Cl)c2)nc1C#N	TYPE 1A	HeLa	3.1 µg/mL
C#CCOc1cc(OC)ccc1-c1cc(N(CC)CC)no1	Serotype 85 (group B)	HeLa	>40 µM
CS(=O)(=O)c1ccc(Cc2ccc(Sc3ccccc3)cc2)nc1	TYPE 64	HeLa	1.3 µg/mL
CCOc1cnc2ccc(OCCC3CCN(c4ccc(C)nn4)CC3)cc2n1	Serotype 14	MRC-5	0.013 µg/mL
CCS(=O)(=O)c1ccc(NCc2ccc(Cl)cc2)nc1C#N	TYPE 64	HeLa	6.3 µg/mL
CCOC(=O)c1ccc(OCCC2CCN(c3ccc(C)nn3)CC2)cc1	Serotype 64	HeLa	<0.1 µg/mL
CSc1nsc(-c2ccc(O)cc2)c1C#N	Serotype 63 (group B)	HELA-OHIO	>10 µM
CSc1nsc(-c2ccc(OCCc3ccccc3)cc2)c1C#N	Serotype 72 (group A)	HELA-OHIO	>20 µM
CS(=O)(=O)c1ccc(Cc2ccc(Cl)c(Cl)c2)nc1	TYPE 1A	HeLa	0.3 µg/mL
Cc1c(-c2ccccc2)n(-c2cccc(F)c2)c2ccc(C(C)C)cc2c1=O	13/353	HELA-OHIO	0.029 µg/mL
COc1ccc(-c2cc(N3CCCC3)no2)c(O)c1	Serotype 89 (group B)	HeLa	45.2 µM
CSc1nsc(-c2ccc(OCCCOc3ccccc3)cc2)c1C#N	Serotype 63 (group B)	HELA-OHIO	>20 µM
CCc1ccc(CCCOc2ccc(-c3noc(C(F)F)n3)cc2)nn1	serotypes 3 4 5 9 16 18 38 66 75 67	HeLa	0.64 µg/mL
CS(=O)(=O)c1ccc(Oc2ccc(C(=O)c3ccccc3)cc2)nc1	TYPE 29	HeLa	>5 µg/mL
CCSc1nc2cc(OCCC3CCN(c4ccc(C)nn4)CC3)ccc2o1	Serotype 2	MRC-5	0.004 µg/mL
COc1ccc(C/C=C/Oc2cc(C)c(-c3noc(C(F)F)n3)c(C)c2)nn1	serotypes 3 4 5 9 16 18 38 66 75 67	HeLa	0.29 µg/mL
Cc1nc(-c2cc(C)c(OCCCc3cc(C(F)(F)F)no3)c(C)c2)no1	Serotype 67	HeLa	0.161 µg/mL
CCOc1ccc(-c2cc(N(CC)CC)no2)c(O)c1	Serotype 14	HeLa	>362 µM
CCOC(=O)c1ccc(OCCCCOc2ccc(-c3snc(SC)c3C#N)cc2)cc1	Serotype 45 (group A)	HELA-OHIO	>2 µM
CCn1c2c(c(=O)c3cc(C(C)C)ccc31)Cc1ccccc1-2	32/363	HELA-OHIO	0.61 µg/mL
CSc1nsc(-c2ccc(OCCCCOc3ccc(C#N)cc3)cc2)c1C#N	Serotype 59 (group B)	HELA-OHIO	>2 µM
Cc1nc(-c2cc(C)c(OCCCc3ccco3)c(C)c2)no1	serotypes 2 14 1A 1B 6 21 22 15 25 30 50 67 89 86 41	HeLa	0.475 µg/mL

6 of the rows above, restated:

smiles	strain	cells	value
CCc1ccc(CCCOc2ccc(-c3noc(C(F)F)n3)cc2)nn1	serotypes 3 4 5 9 16 18 38 66 75 67	HeLa	0.64 µg/mL
CCOC(=O)c1ccc(OCCCCOc2ccc(-c3snc(SC)c3C#N)cc2)cc1	Serotype 45 (group A)	HELA-OHIO	>2 µM
CCCCc1nc2ccc(OCCC3CCN(c4ccc(C)nn4)CC3)cc2o1	Serotype 2	MRC-5	0.13 µg/mL
CS(=O)(=O)c1ccc(Cc2ccc(Cl)c(Cl)c2)nc1	TYPE 1A	HeLa	0.3 µg/mL
COc1ccc(C/C=C/Oc2cc(C)c(-c3noc(C(F)F)n3)c(C)c2)nn1	serotypes 3 4 5 9 16 18 38 66 75 67	HeLa	0.29 µg/mL
CCN(CC)c1cc(-c2ccc(OC)cc2OC)on1	Serotype 14	HeLa	>362 µM